Tested on: bovine viral diarrhea virus (BVDV)
Details: single detergent 0.09%-0.11%, buffer containing HSA, 14° C.±1° C., FIG. 12A

4-tert-octylbenzyl alcohol polyethoxylate
inactivation kinetics compared to Triton X-100, BVDV: same inactivation kinetics as Triton X-100
